In publication PMC12836348, “Alanine Mutagenesis Identifies Specific Amino Acids of Nemertide Alpha‑1 Activity and Its Binding to Target Receptors” (Journal of Natural Products, 2025):

Legend:
rNaV1.4 = target: T1, rNaV1.4 (Rattus norvegicus, UniProt P15390); test: Two-electrode voltage clamp, Nav1.4 in Xenopus laevis oocytes; assay type: cell-based; conditions: negative impact on affinity
T1 construct: expressed in transfected cells; host or cells: Xenopus laevis oocytes (cRNA injection)

BgNav1 = test: Two-electrode voltage clamp, BgNav1 expressed in Xenopus laevis oocytes; assay type: cell-based, Blattella germanica
hNav1.1 = target: T2, hNav1.1 (Homo sapiens, UniProt P35498); test: Two-electrode voltage clamp, Nav1.1 in Xenopus laevis oocytes; assay type: cell-based; conditions: two-electrode voltage clamp in Xenopus laevis oocytes, Hill fit, n ≥ 3; highest tested concentration 50 μM
T2 construct: expressed in transfected cells; host or cells: Xenopus laevis oocytes (cRNA injection)

Structure (SMILES) | fold increase in EC50 on Nav1.4 relative to alpha-1 (rNaV1.4) | fold increase in EC50 on BgNav1 relative to alpha-1 (times lower activity) (BgNav1) | EC50 Nav1.1 (hNav1.1)
CC[C@H](C)[C@@H]1NC(=O)[C@@H](NC(=O)CN)CSSC[C@@H]2NC(=O)[C@@H]3CSSC[C@@H](C(=O)N[C@@H](CC(N)=O)C(=O)N4C[C@H](O)C[C@H]4C(=O)N4C[C@H](O)C[C@H]4C(=O)N[C@@H](CC(N)=O)C(=O)N[C@@H](CCC(N)=O)C(=O)O)NC(=O)[C@H](CCCCN)NC(=O)[C@H](Cc4ccccc4)NC(=O)[C@H](CC(N)=O)NC(=O)[C@H](Cc4c[nH]c5ccccc45)NC(=O)CNC(=O)[C@H](CSSC[C@H](NC(=O)[C@H](C)NC(=O)[C@H](CO)NC(=O)CNC(=O)[C@H]([C@@H](C)O)NC(=O)[C@H](C)NC1=O)C(=O)N[C@@H]([C@@H](C)O)C(=O)N[C@@H](CC(C)C)C(=O)N[C@@H](CO)C(=O)N[C@@H](CCCCN)C(=O)NCC(=O)N3)NC(=O)[C@H](CC(N)=O)NC(=O)[C@H](CCCCN)NC(=O)[C@H]([C@@H](C)O)NC2=O [Peptide F8A] | 3.8- to 30 fold |  | 
CC[C@H](C)[C@@H]1NC(=O)[C@@H](NC(=O)CN)CSSC[C@@H]2NC(=O)[C@@H]3CSSC[C@@H](C(=O)N[C@@H](CC(N)=O)C(=O)N4C[C@H](O)C[C@H]4C(=O)N4C[C@H](O)C[C@H]4C(=O)N[C@@H](CC(N)=O)C(=O)N[C@@H](CCC(N)=O)C(=O)O)NC(=O)[C@H](CCCCN)NC(=O)[C@H](Cc4ccccc4)NC(=O)[C@H](CC(N)=O)NC(=O)[C@H](Cc4c[nH]c5ccccc45)NC(=O)CNC(=O)[C@H](CSSC[C@H](NC(=O)[C@H](Cc4ccccc4)NC(=O)[C@H](CO)NC(=O)CNC(=O)[C@H]([C@@H](C)O)NC(=O)[C@H](C)NC1=O)C(=O)N[C@@H]([C@@H](C)O)C(=O)N[C@@H](CC(C)C)C(=O)N[C@@H](CO)C(=O)N[C@@H](C)C(=O)NCC(=O)N3)NC(=O)[C@H](CC(N)=O)NC(=O)[C@H](CCCCN)NC(=O)[C@H]([C@@H](C)O)NC2=O [Peptide K13A] | 3.8- to 30 fold |  | 
CC[C@H](C)[C@@H]1NC(=O)[C@@H](NC(=O)CN)CSSC[C@@H]2NC(=O)[C@@H]3CSSC[C@@H](C(=O)N[C@@H](CC(N)=O)C(=O)N4C[C@H](O)C[C@H]4C(=O)N4C[C@H](O)C[C@H]4C(=O)N[C@@H](CC(N)=O)C(=O)N[C@@H](CCC(N)=O)C(=O)O)NC(=O)[C@H](C)NC(=O)[C@H](Cc4ccccc4)NC(=O)[C@H](CC(N)=O)NC(=O)[C@H](Cc4c[nH]c5ccccc45)NC(=O)CNC(=O)[C@H](CSSC[C@H](NC(=O)[C@H](Cc4ccccc4)NC(=O)[C@H](CO)NC(=O)CNC(=O)[C@H]([C@@H](C)O)NC(=O)[C@H](C)NC1=O)C(=O)N[C@@H]([C@@H](C)O)C(=O)N[C@@H](CC(C)C)C(=O)N[C@@H](CO)C(=O)N[C@@H](CCCCN)C(=O)NCC(=O)N3)NC(=O)[C@H](CC(N)=O)NC(=O)[C@H](CCCCN)NC(=O)[C@H]([C@@H](C)O)NC2=O [Peptide K25A] | 3.8- to 30 fold | 44- to 195 fold | 
CC[C@H](C)[C@@H]1NC(=O)[C@@H](NC(=O)CN)CSSC[C@@H]2NC(=O)[C@@H]3CSSC[C@@H](C(=O)N[C@@H](CC(N)=O)C(=O)N4C[C@H](O)C[C@H]4C(=O)N4C[C@H](O)C[C@H]4C(=O)N[C@@H](CC(N)=O)C(=O)N[C@@H](CCC(N)=O)C(=O)O)NC(=O)[C@H](CCCCN)NC(=O)[C@H](Cc4ccccc4)NC(=O)[C@H](CC(N)=O)NC(=O)[C@H](Cc4c[nH]c5ccccc45)NC(=O)CNC(=O)[C@H](CSSC[C@H](NC(=O)[C@H](Cc4ccccc4)NC(=O)[C@H](CO)NC(=O)CNC(=O)[C@H]([C@@H](C)O)NC(=O)[C@H](C)NC1=O)C(=O)N[C@@H]([C@@H](C)O)C(=O)N[C@@H](C)C(=O)N[C@@H](CO)C(=O)N[C@@H](CCCCN)C(=O)NCC(=O)N3)NC(=O)[C@H](CC(N)=O)NC(=O)[C@H](CCCCN)NC(=O)[C@H]([C@@H](C)O)NC2=O [Peptide L11A] | 3.8- to 30 fold |  | 
CC[C@H](C)[C@@H]1NC(=O)[C@@H](NC(=O)CN)CSSC[C@@H]2NC(=O)[C@@H]3CSSC[C@@H](C(=O)N[C@@H](CC(N)=O)C(=O)N4C[C@H](O)C[C@H]4C(=O)N4C[C@H](O)C[C@H]4C(=O)N[C@@H](CC(N)=O)C(=O)N[C@@H](CCC(N)=O)C(=O)O)NC(=O)[C@H](CCCCN)NC(=O)[C@H](Cc4ccccc4)NC(=O)[C@H](CC(N)=O)NC(=O)[C@H](Cc4c[nH]c5ccccc45)NC(=O)CNC(=O)[C@H](CSSC[C@H](NC(=O)[C@H](Cc4ccccc4)NC(=O)[C@H](CO)NC(=O)CNC(=O)[C@H]([C@@H](C)O)NC(=O)[C@H](C)NC1=O)C(=O)N[C@@H]([C@@H](C)O)C(=O)N[C@@H](CC(C)C)C(=O)N[C@@H](CO)C(=O)N[C@@H](CCCCN)C(=O)NCC(=O)N3)NC(=O)[C@H](C)NC(=O)[C@H](CCCCN)NC(=O)[C@H]([C@@H](C)O)NC2=O [Peptide N19A] |  |  | no activity at all
CC[C@H](C)[C@@H]1NC(=O)[C@@H](NC(=O)CN)CSSC[C@@H]2NC(=O)[C@@H]3CSSC[C@@H](C(=O)N[C@@H](CC(N)=O)C(=O)N4C[C@H](O)C[C@H]4C(=O)N4C[C@H](O)C[C@H]4C(=O)N[C@@H](CC(N)=O)C(=O)N[C@@H](CCC(N)=O)C(=O)O)NC(=O)[C@H](CCCCN)NC(=O)[C@H](Cc4ccccc4)NC(=O)[C@H](CC(N)=O)NC(=O)[C@H](Cc4c[nH]c5ccccc45)NC(=O)CNC(=O)[C@H](CSSC[C@H](NC(=O)[C@H](Cc4ccccc4)NC(=O)[C@H](CO)NC(=O)CNC(=O)[C@H]([C@@H](C)O)NC(=O)[C@H](C)NC1=O)C(=O)N[C@@H]([C@@H](C)O)C(=O)N[C@@H](CC(C)C)C(=O)N[C@@H](CO)C(=O)N[C@@H](CCCCN)C(=O)NCC(=O)N3)NC(=O)[C@H](CC(N)=O)NC(=O)[C@H](CCCCN)NC(=O)[C@H](C)NC2=O [Peptide T17A] |  | 44- to 195 fold | 
CC[C@H](C)[C@@H]1NC(=O)[C@@H](NC(=O)CN)CSSC[C@@H]2NC(=O)[C@@H]3CSSC[C@@H](C(=O)N[C@@H](CC(N)=O)C(=O)N4C[C@H](O)C[C@H]4C(=O)N4C[C@H](O)C[C@H]4C(=O)N[C@@H](CC(N)=O)C(=O)N[C@@H](CCC(N)=O)C(=O)O)NC(=O)[C@H](CCCCN)NC(=O)[C@H](Cc4ccccc4)NC(=O)[C@H](CC(N)=O)NC(=O)[C@H](C)NC(=O)CNC(=O)[C@H](CSSC[C@H](NC(=O)[C@H](Cc4ccccc4)NC(=O)[C@H](CO)NC(=O)CNC(=O)[C@H]([C@@H](C)O)NC(=O)[C@H](C)NC1=O)C(=O)N[C@@H]([C@@H](C)O)C(=O)N[C@@H](CC(C)C)C(=O)N[C@@H](CO)C(=O)N[C@@H](CCCCN)C(=O)NCC(=O)N3)NC(=O)[C@H](CC(N)=O)NC(=O)[C@H](CCCCN)NC(=O)[C@H]([C@@H](C)O)NC2=O [Peptide W22A] |  | 44- to 195 fold | very low activity
